The values below come from ChEMBL document CHEMBL3352217, “Expanding the results of a high throughput screen against an isochorismate-pyruvate lyase to enzymes of a similar scaffold or mechanism” (Bioorg Med Chem, 2014).

The chains behind the UniProt entries cited, without tags or fusion partners. Residues count along the entry.
UniProt Q9X9I8, 1-434: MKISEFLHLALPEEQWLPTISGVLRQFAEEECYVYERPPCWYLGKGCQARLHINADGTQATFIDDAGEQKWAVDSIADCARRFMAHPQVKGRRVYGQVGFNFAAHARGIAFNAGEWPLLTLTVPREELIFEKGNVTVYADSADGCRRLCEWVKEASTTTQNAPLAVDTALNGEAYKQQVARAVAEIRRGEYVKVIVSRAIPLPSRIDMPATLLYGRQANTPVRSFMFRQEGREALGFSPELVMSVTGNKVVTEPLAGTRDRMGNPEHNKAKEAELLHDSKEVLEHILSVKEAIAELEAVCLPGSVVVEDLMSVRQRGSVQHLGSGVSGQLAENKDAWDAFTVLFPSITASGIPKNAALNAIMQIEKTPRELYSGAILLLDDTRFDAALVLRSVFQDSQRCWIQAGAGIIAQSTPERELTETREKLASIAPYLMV

A short description of test [1]: Inhibition of Pseudomonas aeruginosa PAO1 PchB expressed in Escherichia coli BL21(DE3) using isochorismate as substrate assessed as pyruvate production after 10 mins by microplate reader analysis.
Test [2] in a line: Inhibition of Pseudomonas aeruginosa PAO1 PchB expressed in Escherichia coli BL21(DE3) using isochorismate as substrate assessed as salicylate production by fluorescence spectrometry.
A short description of test [3]: Competitive inhibition of Pseudomonas aeruginosa PAO1 PchB expressed in Escherichia coli BL21(DE3) using isochorismate as substrate.
In test [4] the target is Salicylate synthetase, Irp9 (Yersinia enterocolitica, UniProt Q9X9I8). As to the kind of experiment: Inhibition of Yersinia enterocolitica Irp9 using chorismate as substrate assessed as pyruvate production after 10 mins by microplate reader analysis.

Consider `O=[N+]([O-])c1cc(S(=O)(=O)c2cc([N+](=O)[O-])c(O)c([N+](=O)[O-])c2)cc([N+](=O)[O-])c1O`, for which the IC50 (in general, the concentration that gives 50% inhibition) in test [1] is 70 nM; in test [2], 100 nM; in test [4], “Not Active”. Also, the affinity in test [3] corresponds to a Ki of 80 nM.
